Only a part is listed here, and it is no random draw. Records with an inconclusive call do not appear. Entries that show only a call come without a potency. The source made the active and inactive calls. Calls come from the whole dose curve; as a rule, active = well fitted inhibition curve with a large enough effect; inconclusive = small, poorly fitted or top-dose-only effect; inactive = flat fitted curve, though single readings scatter.
test system: CP265; experiment: qHTS profiling for inhibitors of Plasmodium falciparum proliferation (AID 504749); note: nearly all actives have a fitted effect of over 60% in size; conditions: P. falciparum in erythrocytes, SYBR Green DNA, 72 h; at 28.7 µM (top of the series) unless noted
How it was run: (§1)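 SYBR Green fluorescence (ex 485 nm, em 535 nm) reports parasite DNA after 72 h compound exposure of infected red cells at 0.3% parasitemia, 2.5% hematocrit; signal normalized to 0.29 uM artemisinin and vehicle wells.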
Potency is the fitted concentration of half-maximal effect.

Compound	activity, negative = inhibition
O=[N+]([O-])c1cccc([N+](=O)[O-])c1	inactive: 8.61%
C/C1=C2N=C(/C=C3N=C(/C(C)=C4\[N-][C@@](C)([C@H]5N=C1[C@@](C)(CCC(=O)NC[C@H](C)OP(=O)([O-])O[C@@H]1[C@H](O)[C@H](n6cnc7cc(C)c(C)cc76)O[C@@H]1CO)[C@@H]5CC(N)=O)[C@](C)(CC(N)=O)[C@H]4CCC(N)=O)[C@@](C)(CC(N)=O)[C@@H]\3CCC(N)=O)C(C)(C)[C@@H]/2CCC(N)=O.[C-]#N.[Co+3]	inactive: 6.84% [at 12.8 µM]
O=[N+]([O-])OCC(CO[N+](=O)[O-])(CO[N+](=O)[O-])CO[N+](=O)[O-]	inactive: -3.5%
CC(C)OP(=O)(F)OC(C)C	inactive: 1.08%

test system: CP268; experiment: as above; conditions: P. falciparum in erythrocytes, SYBR Green DNA, 72 h; series mostly up to 28.7 µM
How it was run: as §1

Compound	Potency
O=[N+]([O-])c1cccc([N+](=O)[O-])c1	inactive
C/C1=C2N=C(/C=C3N=C(/C(C)=C4\[N-][C@@](C)([C@H]5N=C1[C@@](C)(CCC(=O)NC[C@H](C)OP(=O)([O-])O[C@@H]1[C@H](O)[C@H](n6cnc7cc(C)c(C)cc76)O[C@@H]1CO)[C@@H]5CC(N)=O)[C@](C)(CC(N)=O)[C@H]4CCC(N)=O)[C@@](C)(CC(N)=O)[C@@H]\3CCC(N)=O)C(C)(C)[C@@H]/2CCC(N)=O.[C-]#N.[Co+3]	inactive
O=[N+]([O-])OCC(CO[N+](=O)[O-])(CO[N+](=O)[O-])CO[N+](=O)[O-]	active: 13.5 µM
CC(C)OP(=O)(F)OC(C)C	inactive

test system: CP269; experiment: as above; conditions: P. falciparum in erythrocytes, SYBR Green DNA, 72 h; at 28.7 µM (top of the series) unless noted
How it was run: as §1

Compound	activity, negative = inhibition
O=[N+]([O-])c1cccc([N+](=O)[O-])c1	inactive: -2.63%
C/C1=C2N=C(/C=C3N=C(/C(C)=C4\[N-][C@@](C)([C@H]5N=C1[C@@](C)(CCC(=O)NC[C@H](C)OP(=O)([O-])O[C@@H]1[C@H](O)[C@H](n6cnc7cc(C)c(C)cc76)O[C@@H]1CO)[C@@H]5CC(N)=O)[C@](C)(CC(N)=O)[C@H]4CCC(N)=O)[C@@](C)(CC(N)=O)[C@@H]\3CCC(N)=O)C(C)(C)[C@@H]/2CCC(N)=O.[C-]#N.[Co+3]	inactive: -3.94% [at 12.8 µM]
CC(C)OP(=O)(F)OC(C)C	inactive: 0.301%

test system: CP286; experiment: as above; conditions: P. falciparum in erythrocytes, SYBR Green DNA, 72 h; series mostly up to 28.7 µM
How it was run: as §1

Compound	Potency
O=[N+]([O-])c1cccc([N+](=O)[O-])c1	inactive
C/C1=C2N=C(/C=C3N=C(/C(C)=C4\[N-][C@@](C)([C@H]5N=C1[C@@](C)(CCC(=O)NC[C@H](C)OP(=O)([O-])O[C@@H]1[C@H](O)[C@H](n6cnc7cc(C)c(C)cc76)O[C@@H]1CO)[C@@H]5CC(N)=O)[C@](C)(CC(N)=O)[C@H]4CCC(N)=O)[C@@](C)(CC(N)=O)[C@@H]\3CCC(N)=O)C(C)(C)[C@@H]/2CCC(N)=O.[C-]#N.[Co+3]	inactive
O=[N+]([O-])OCC(CO[N+](=O)[O-])(CO[N+](=O)[O-])CO[N+](=O)[O-]	active: 4.47 µM
CC(C)OP(=O)(F)OC(C)C	inactive

test system: CP291; experiment: as above; conditions: P. falciparum in erythrocytes, SYBR Green DNA, 72 h; series mostly up to 28.7 µM
How it was run: as §1

Compound	Potency
O=[N+]([O-])c1cccc([N+](=O)[O-])c1	inactive
C/C1=C2N=C(/C=C3N=C(/C(C)=C4\[N-][C@@](C)([C@H]5N=C1[C@@](C)(CCC(=O)NC[C@H](C)OP(=O)([O-])O[C@@H]1[C@H](O)[C@H](n6cnc7cc(C)c(C)cc76)O[C@@H]1CO)[C@@H]5CC(N)=O)[C@](C)(CC(N)=O)[C@H]4CCC(N)=O)[C@@](C)(CC(N)=O)[C@@H]\3CCC(N)=O)C(C)(C)[C@@H]/2CCC(N)=O.[C-]#N.[Co+3]	inactive
O=[N+]([O-])OCC(CO[N+](=O)[O-])(CO[N+](=O)[O-])CO[N+](=O)[O-]	active: 13.5 µM
CC(C)OP(=O)(F)OC(C)C	inactive

test system: CP297; experiment: as above; conditions: P. falciparum in erythrocytes, SYBR Green DNA, 72 h; series mostly up to 28.7 µM
How it was run: as §1

Compound	Potency
O=[N+]([O-])c1cccc([N+](=O)[O-])c1	inactive
C/C1=C2N=C(/C=C3N=C(/C(C)=C4\[N-][C@@](C)([C@H]5N=C1[C@@](C)(CCC(=O)NC[C@H](C)OP(=O)([O-])O[C@@H]1[C@H](O)[C@H](n6cnc7cc(C)c(C)cc76)O[C@@H]1CO)[C@@H]5CC(N)=O)[C@](C)(CC(N)=O)[C@H]4CCC(N)=O)[C@@](C)(CC(N)=O)[C@@H]\3CCC(N)=O)C(C)(C)[C@@H]/2CCC(N)=O.[C-]#N.[Co+3]	inactive
O=[N+]([O-])OCC(CO[N+](=O)[O-])(CO[N+](=O)[O-])CO[N+](=O)[O-]	active: 4.78 µM
CC(C)OP(=O)(F)OC(C)C	inactive

test system: CP305; experiment: as above; conditions: P. falciparum in erythrocytes, SYBR Green DNA, 72 h; series mostly up to 28.7 µM
How it was run: as §1

Compound	Potency
O=[N+]([O-])c1cccc([N+](=O)[O-])c1	inactive
C/C1=C2N=C(/C=C3N=C(/C(C)=C4\[N-][C@@](C)([C@H]5N=C1[C@@](C)(CCC(=O)NC[C@H](C)OP(=O)([O-])O[C@@H]1[C@H](O)[C@H](n6cnc7cc(C)c(C)cc76)O[C@@H]1CO)[C@@H]5CC(N)=O)[C@](C)(CC(N)=O)[C@H]4CCC(N)=O)[C@@](C)(CC(N)=O)[C@@H]\3CCC(N)=O)C(C)(C)[C@@H]/2CCC(N)=O.[C-]#N.[Co+3]	inactive
O=[N+]([O-])OCC(CO[N+](=O)[O-])(CO[N+](=O)[O-])CO[N+](=O)[O-]	active: 15.1 µM
CC(C)OP(=O)(F)OC(C)C	inactive
